Values quoted from earlier work as cited in patent publication US20240026314A1, “POLYPEPTIDES FOR USE IN THE SYNTHESIS OF BIOACTIVE PHENOLIC COMPOUNDS” (priority 2020, published 2024).

Columns and labels:
[1] = test system: colon cancer cell line SW480; conditions: SW480 (Akao et al 2008); cited from earlier work
[2] = test system: human leukemia cell line HL60; conditions: HL60 (Akao et al 2008); cited from earlier work
[3] = test system: sarcoma S-180; conditions: oral administration; mice with sarcoma S-180 (Mishima et al 2005); cited from earlier work

Substance: baccharin
- apoptotic events [1]: induce apoptotic events
- apoptotic events [2]: induce apoptotic events
- tumor growth [3]: significant reduction in tumor growth
